A mixed list of measured activities; the numbers were collected in NIAID ChemDB.

MIC bound: limit read from a one-dose screen. Inhibition is in % at the dose shown (toxicity tests: loss of growth or viability). Neighbouring rows are from separate reports. ICn: concentration for n% inhibition. Blank or dashed fields: not listed here.

smiles	read-out	agent	tested at	method	target	kind	strain	value
CCOC(=O)c1c(C)n(C)c(C)c(C(=O)OCC)c1=O	MIC	Mycobacterium tuberculosis	-	-	-	culture	H37Rv	>100 µg/mL
Cc1ccc(N2CCN(c3cncc(-c4cc(C)cc(C)c4)n3)CC2)cc1	IC50	Cytomegalovirus	-	-	UL97 kinase	target	-	<100 µM
COc1ccc2nc3cc(Cl)ccc3c(NC(C)(C)CO)c2c1	MIC	Mycobacterium tuberculosis	-	-	-	culture	H37Rv	100 µg/mL
COc1cccc(-c2cncc(N3CCN(c4ccccc4F)CC3)n2)c1	IC50	Cytomegalovirus	-	-	UL97 kinase	target	-	<10 µM
CCOC(=O)C(Br)CC(C)C	MIC	Mycobacterium tuberculosis	-	-	-	culture	H37Rv	>100 µg/mL
Fc1ccc(N2CCCCC2)c(NC(=S)c2ccncc2)c1	inhibition	-	10 µM	kinase activity	cKit	host protein	-	5%
C=C1[C@@H](C)[C@H]2[C@H](Cc3ccccc3)NC(=O)[C@]23[C@H](OC(C)=O)/C=C/[C@@](C)(O)C(=O)[C@@H](C)C/C=C/[C@H]3[C@@H]1O	inhibition	Mycobacterium tuberculosis	12.5 µg/mL	BACTEC	-	culture	H37Rv	17%
COc1ccc(N2CCN(c3cncc(-c4ccc(C(C)C)cc4)n3)CC2)cc1OC	inhibition	Cytomegalovirus	1 µM	-	UL97 kinase	target	-	<50%
O=C(CN1C(=O)CC(NC(=O)OCc2ccccc2)C1=O)NCC(=O)Oc1ccc([N+](=O)[O-])cc1	MIC bound	Mycobacterium tuberculosis	-	BACTEC	-	culture	H37Rv	>12.8 µg/mL
c1ccc(C2CCN(c3cncc(-c4ccsc4)n3)CC2)cc1	IC50	Cytomegalovirus	-	-	UL97 kinase	target	-	<10 µM
Nc1ccc(P(=O)([O-])[O-])cc1.[Na+].[Na+]	MIC	Mycobacterium tuberculosis	-	-	-	culture	H37Rv	>100 µg/mL
O=C(CCSCCC(=O)N/N=C/C(O)C(O)C(O)CO)N/N=C/C(O)C(O)C(O)CO	inhibition	Mycobacterium tuberculosis	12.5 µg/mL	BACTEC	-	culture	H37Rv	0%
Cc1ccc(-c2cncc(N3CCN(c4ccc(C)cc4)CC3)n2)cc1	IC50	Cytomegalovirus	-	-	UL97 kinase	target	-	<100 µM
N#CC1(OC2OC(CO)C(O)C(O)C2O)C=CC(O)C1O	MIC bound	Mycobacterium tuberculosis	-	BACTEC	-	culture	H37Rv	>12.5 µg/mL
Ic1ccccc1OCCOCC[n+]1ccccc1	MIC	Mycobacterium tuberculosis	-	-	-	culture	H37Rv	>100 µg/mL
O=c1oc2ccccc2c(O)c1C=NC(=S)c1ccncc1	MIC bound	Mycobacterium tuberculosis	-	resazurin	-	culture	H37Rv	>6.25 µg/mL
Cc1ccc(S(=O)(=O)[N-]Cl)cc1.[Na+]	MIC	Mycobacterium tuberculosis	-	-	-	culture	H37Rv	>100 µg/mL
O=[N+]([O-])c1ccc(N/N=C/c2ccc(O)cc2O)nc1	MIC bound	Mycobacterium tuberculosis	-	BACTEC	-	culture	H37Rv	>12.5 µg/mL
c1ccc(N2CCN(c3cncc(-c4csc5ccccc45)n3)CC2)cc1	IC50	Cytomegalovirus	-	-	UL97 kinase	target	-	<10 µM
CSc1nc(C#N)c(N)n1C	MIC bound	Mycobacterium tuberculosis	-	BACTEC	-	culture	H37Rv	>12.5 µg/mL
COCC(O)CNCCN	MIC	Mycobacterium tuberculosis	-	-	-	culture	H37Rv	>100 µg/mL